Anti-infective test results gathered from many reports (values: NIAID ChemDB through PubChem).

Common to all: tests in culture; agent: Candida albicans; read-out: MIC

Rows are shuffled and stem from different studies.

compound	strain	value
c1cnc2c(c1)ccc1cccnc12	ATCC 10231	300 µg/mL
CC[C@@H]([C@H](C)O)n1ncn(-c2ccc(N3CCN(c4ccc(OC[C@@H]5CO[C@@](Cn6cncn6)(c6ccc(F)cc6F)C5)cc4)CC3)cc2)c1=O	Isolate CA-5	>4 µg/mL
CC(=O)C1CCc2sccc2C1=O	-	25 µg/mL
CC(N1CCN(c2ccc(-n3ccnn3)cc2)C1=O)C(O)(Cn1cncn1)c1ccc(F)cc1F	TA	0.008 µg/mL
CCCOc1ccccc1CON1C(N)=NC(N)=NC1(C)C	-	60 µg/mL
c1ccc(-c2cnn3c4c(cnc23)CCCCCC4)cc1	-	25 µg/mL
CC(n1ncn(-c2ccc(Cn3ccnn3)cc2)c1=O)C(O)(Cn1cncn1)c1ccc(F)cc1F	TA	0.5 µg/mL
CC(NC(=O)OC(C)(C)C)c1nc(C(=O)O)co1	7 isolates	428 µM
Cc1nc2c(sc(=S)n2-c2ccccc2)c(=O)n1C	DSM 70443	160 µg/mL
CC(C)(C)OC(=O)N1CCCC1c1nc(C(=O)O)cs1	7 isolates	443 µM
O=C(O)C1=CCCCCC1	ATCC10259	200 µg/mL
Clc1ccc(C(Cc2ccccc2Cl)Cn2ccnc2)c(Cl)c1	-	100 µg/mL
C[C@H](N1CCN(c2ccc(-n3cccn3)cc2)C1=O)[C@@](O)(Cn1cncn1)c1ccc(F)cc1F	TIMM1850	0.004 µg/mL
CC(N)c1nc(C(=O)NN)cs1	7 isolates	200–400 µM
Clc1ccc(C(CCc2ccc(Br)cc2)Cn2ccnc2)c(Cl)c1	-	>100 µg/mL
CC(n1ccn(-c2ccc(-n3cncn3)cc2)c1=O)C(O)(Cn1cncn1)c1ccc(F)cc1F	TA	<0.016 µg/mL
Clc1ccc(CCC(Cn2ccnc2)c2ccc(Cl)cc2Cl)cc1	-	10 µg/mL
CCOC(=O)c1csc(C(CC(=O)OC)NC(=O)OC(C)(C)C)n1	7 isolates	>3000 µM
COc1cc(CON2C(N)=NC(N)=NC2(C)C)cc(OC)c1	-	>240 µg/mL
CCC(C)n1ncn(-c2ccc(N3CCN(c4ccc(OC[C@H]5CO[C@](Cn6cncn6)(c6ccc(Cl)cc6Cl)O5)cc4)CC3)cc2)c1=O	Isolate CA-11	>8 µg/mL
CNC1C(C)OC(O[C@H]2c3cc(C)c(C(=O)N[C@@H](CO)C(=O)O)c(O)c3-c3c(cc4c(c3O)C(=O)c3cc(OC)cc(O)c3C4=O)[C@@H]2O)C(O)C1OC1OCC(O)C(O)C1O	A9540	12.5 µg/mL
CC(CCCCCCCON1C(N)=NC(N)=NC12CCCCC2)c1ccccc1	-	19 µg/mL
O=C(/C=C/c1ccccc1)c1ccc2sccc2c1O	-	25 µg/mL
CO[C@H]1/C=C/O[C@@]2(C)Oc3c(C)c(O)c4c(O)c(c(/C=N/N=c5\sc6ccccc6n5C)c(O)c4c3C2=O)NC(=O)/C(C)=C\C=C\[C@H](C)[C@H](O)[C@@H](C)[C@@H](O)[C@@H](C)[C@H](OC(C)=O)[C@@H]1C	3147	>100 µg/mL
COc1ccc2[nH]c(=O)c(C(F)(F)F)nc2c1	-	>200 µM
CC(n1ccn(-c2ccc(-n3ccnc3)cc2)c1=O)C(O)(Cn1cncn1)c1ccc(F)cc1F	TA	0.004 µg/mL
Cc1cc(NC(=O)CCN2C(=O)S/C(=C\c3ccc(Cl)cc3)C2=O)ccc1Cl	-	25 µg/mL
Cc1ccccc1C(Cc1c(Cl)cccc1Cl)Cn1ccnc1	-	>100 µg/mL
Cc1nc(Nc2ccccc2)c2sc(=S)n(-c3ccccc3)c2n1	DSM 70443	50 µg/mL
CC(n1ccn(-c2ccc(-n3cnnn3)cc2)c1=O)C(O)(Cn1cncn1)c1ccc(F)cc1F	TA	0.008 µg/mL
COC(=O)c1ccc2c(ccn2C)c1O	-	>50 µg/mL
COC(=O)c1ccc2c(c1)nc(-c1ccc(OCc3ccccc3)c(OCc3ccccc3)c1)n2Cc1ccccc1	-	100 µg/mL
COc1ccc(C(=O)CC(=O)c2ccc3c(ccn3C)c2OC)cc1	-	25 µg/mL
Clc1ccccc1C(Cc1c(Cl)cccc1Cl)Cn1ccnc1	-	100 µg/mL
Cc1nc(NC2CC2)c2sc(=S)n(-c3ccccc3)c2n1	DSM 70443	80 µg/mL
O=c1c(O)c(-c2ccccc2)oc2c1ccc1sccc12	-	>50 µg/mL
O=C(CCN1C(=O)S/C(=C\c2ccccc2Cl)C1=O)Nc1ccc([N+](=O)[O-])cc1	-	6.25 µg/mL
COC(=O)c1ccc2nc(-c3ccc(Cl)cc3)[nH]c2c1	-	100 µg/mL
O=C(O)C1=CCCCC1	ATCC10259	>1000 µg/mL
Cc1c(O)cccc1C(=O)N[C@@H](CSc1ccccc1)[C@H](O)CN1C[C@H]2CCCC[C@H]2C[C@H]1C(=O)NC(C)(C)C	I14A	64 µg/mL
O=c1[nH]c2ccc(Cl)c(Cl)c2nc1C(F)(F)F	-	>200 µM
C=C1/C=C(\C)[C@H](CC)OC(=O)[C@H](C)C(=O)C(O)(CO)C/C(OC)=C/[C@@H](C)C1	CA2	2 µg/mL
Cc1c(Cl)cccc1NC(=O)CCN1C(=O)S/C(=C\c2ccc(O)cc2O)C1=O	-	50 µg/mL
O=c1[nH]c2ccc(Cl)cc2nc1C(F)(F)F	-	>200 µM
COC(=O)c1ccc2c(c1)nc(-c1ccc(OCc3ccccc3)cc1)n2Cc1ccccc1	-	>100 µg/mL
Nc1ncc2c(n1)CCCCCC2	-	50 µg/mL
CC1(C)N=C(N)N=C(N)N1OCCCCCCCCCCCCON1C(N)=NC(N)=NC1(C)C	-	30 µg/mL
CSc1nc(C)nc2c1sc(=S)n2-c1ccccc1	DSM 70443	>200 µg/mL
CC(N1CCN(c2ccc(-n3cnnn3)cc2)C1=O)C(O)(Cn1cncn1)c1ccc(F)cc1F	TIMM1756	0.008 µg/mL
Nc1cc(C(F)(F)F)cc2[nH]c(=O)c(C(F)(F)F)nc12	-	>200 µM
CC(C)(C)OC(=O)N[C@@H](Cc1nccs1)C(=O)N(OCc1ccccc1)[C@@H](Cc1ccc(O)cc1)C(=O)N[C@@H](Cc1ccccc1)C(=O)OCc1ccccc1	7 isolates	>1000 µM
CC(C)c1nc2ccccc2[nH]c1=O	-	>200 µM
C=CC1=CC[C@H]2[C@@H](C[C@H]3OC(=O)[C@@]4(C)[C@@H](O)CC[C@@]2(C)[C@@]34O)[C@H]1C	-	8 µg/mL
CC(=O)N[C@H]1C(O[C@H]2CC[C@@]3(C)C(CC[C@]4(C)C3CC=C3[C@]5(C)CC(C)(C)CC[C@]5(C(=O)O)CC[C@]34C)C2(C)C)O[C@H](CO[C@@H]2OC[C@H](O)[C@H](O)[C@H]2OC2OC[C@H](O)[C@H](O)[C@H]2O)[C@@H](O)[C@@H]1O	-	12.5 µg/mL
CC(C)C(NC(=O)OC(C)(C)C)c1nc(C(N)=O)cs1	7 isolates	429 µM
CC1C=C(C(=O)O)CCC1	ATCC10259	500 µg/mL
CC(C)c1nc2c(Cl)c(Cl)ccc2[nH]c1=O	-	>200 µM
CCCCOc1ccccc1CON1C(N)=NC(N)=NC1(C)C	-	30 µg/mL
COC(=O)c1ccc2nc(-c3ccc(Cl)cc3Cl)[nH]c2c1	-	50 µg/mL
CCCCCCCCCCON1C(N)=NC(N)=NC12CCC(C)CC2	-	15 µg/mL
Cc1nc(-c2ccc(-n3cnn(C(C)C(O)(Cn4cncn4)c4ccc(F)cc4F)c3=O)cc2)co1	TA	0.004 µg/mL
CC1(C)N=C(N)N=C(N)N1OCCCCCCCCON1C(N)=NC(N)=NC1(C)C	-	60–240 µg/mL
Cc1nc2c(sc(=S)n2-c2ccccc2)c(=O)n1N	DSM 70443	20 µg/mL
CC(C)CC(NC(=O)OC(C)(C)C)c1nc(C(=O)NN)cs1	7 isolates	>3000 µM
CCCCCCCCCCON1C(N)=NC(N)=NC1/C=C/c1ccccc1	-	15 µg/mL

Again, the opening 5 rows:

compound	strain	value
c1cnc2c(c1)ccc1cccnc12	ATCC 10231	300 µg/mL
CC[C@@H]([C@H](C)O)n1ncn(-c2ccc(N3CCN(c4ccc(OC[C@@H]5CO[C@@](Cn6cncn6)(c6ccc(F)cc6F)C5)cc4)CC3)cc2)c1=O	Isolate CA-5	>4 µg/mL
CC(=O)C1CCc2sccc2C1=O	-	25 µg/mL
CC(N1CCN(c2ccc(-n3ccnn3)cc2)C1=O)C(O)(Cn1cncn1)c1ccc(F)cc1F	TA	0.008 µg/mL
CCCOc1ccccc1CON1C(N)=NC(N)=NC1(C)C	-	60 µg/mL

An empty or dashed field is not shown. Two numbers with a dash give a range or band.